Measured data: PubChem BioAssay AID624099 (ICCB-Longwood, 2012)
Shown is an unselected part of about 21,000 deposited reagents. Of all reagents, 497 (2.4%) are marked active. 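Higher z means weaker E2 silencing; only reporter increases were scored, and knock-downs that hurt cell survival may mask genuine repressor factors.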 No sequences are given here.

Aim: 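Human genes that papillomavirus E2 requires to repress the HPV18 LCR promoter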 (primary screen)
Cells: human C33A cervical carcinoma cells (HPV-negative) stably expressing BPV1 E2 and an HPV18 LCR luciferase reporter
Knock-down reagent: siRNA pool against human genes, 40 nM
Timing: 72 h
Detection: 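Per-well luciferase luminescence, z-scored on each plate against the plate mean and SD with control wells left out, then averaged across three replicate plates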
Direction: mean z-score and z-score: higher = stronger reporter signal, weaker E2 silencing
Call rule: 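Mean z ≥ 2 together with z ≥ 2 in two or more of the three replicates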

| gene knocked down | mean z-score | z-score, replicate A | z-score, replicate B | z-score, replicate C | Outcome |
| --- | --- | --- | --- | --- | --- |
| EFCAB9 (GeneID 285588) | -0.14 | -0.32 | -0.01 | -0.09 | inactive |
| EBI3 (GeneID 10148) | -0.33 | -0.37 | -0.33 | -0.3 | inactive |
| NEUROG3 (GeneID 50674) | 0.74 | 0.85 | 0.51 | 0.85 | inactive |
| ARAF (GeneID 369) | 0.02 | -0.33 | 0.33 | 0.07 | inactive |
| AQP7 (GeneID 364) | -0.64 | -0.45 | -0.61 | -0.86 | inactive |
| SPANXN3 (GeneID 139067) | 0.2 | 0.07 | 0 | 0.52 | inactive |
| DYRK2 (GeneID 8445) | 0.64 | 0.83 | 0.88 | 0.21 | inactive |
| TXNDC2 (GeneID 84203) | -0.51 | -0.54 | -0.45 | -0.53 | inactive |
| MTIF3 (GeneID 219402) | -1.03 | -0.85 | -1.22 | – | inactive |
| CXCL3 (GeneID 2921) | 0.57 | 0.44 | 0.6 | 0.68 | inactive |
| PIERCE2 (GeneID 145788) | 0.38 | 0 | 0.88 | 0.26 | inactive |
| LOC285479 (retired record) (GeneID 285479) | -0.74 | -0.81 | -0.94 | -0.47 | inactive |
| BIK (GeneID 638) | 0.16 | 0.57 | -0.08 | 0 | inactive |
| ASB10 (GeneID 136371) | -0.36 | -0.76 | -0.2 | -0.12 | inactive |
| CLCC1 (GeneID 23155) | -0.77 | -0.73 | -0.83 | -0.76 | inactive |
| PPP3R2 (GeneID 5535) | -0.25 | -0.3 | -0.23 | -0.23 | inactive |
| COMMD5 (GeneID 28991) | -0.43 | -0.58 | -0.67 | -0.04 | inactive |
| PRR25 (GeneID 388199) | 0.82 | 0.91 | 0.74 | 0.82 | inactive |
| OTUD1 (GeneID 220213) | 0.22 | 0.42 | -0.29 | 0.53 | inactive |
| ZNF205 (GeneID 7755) | 0.42 | 0.48 | 0.56 | 0.23 | inactive |
| ATP6AP2 (GeneID 10159) | -0.55 | -0.74 | -0.56 | -0.35 | inactive |
| PLXDC1 (GeneID 57125) | -0.64 | -0.68 | -0.41 | -0.82 | inactive |
| LOC391362 (retired record) (GeneID 391362) | 0.31 | -0.01 | 0.74 | 0.22 | inactive |
| FIGLA (GeneID 344018) | -0.26 | -0.01 | -0.02 | -0.75 | inactive |
| FCRL2 (GeneID 79368) | -3.09 | -3.16 | -3.05 | -3.07 | inactive |
| ZACN (GeneID 353174) | -1.2 | -1.5 | -1.07 | -1.03 | inactive |
| TRPC4AP (GeneID 26133) | -0.12 | -0.17 | -0.28 | 0.1 | inactive |
| UBE3B (GeneID 89910) | -0.55 | -0.5 | -0.69 | -0.45 | inactive |
| TINAGL1 (GeneID 64129) | -1.15 | -1.12 | -0.65 | -1.69 | inactive |
| TROAP (GeneID 10024) | 3.14 | 3.39 | 2.96 | 3.08 | active |
| HNRNPA1P4 (GeneID 389674) | 1.82 | 1.33 | 1.67 | 2.47 | inactive |
| SMCR8 (GeneID 140775) | 1.41 | 1.87 | 0.94 | 1.42 | inactive |
| FAM156A (GeneID 29057) | 0.2 | 0.17 | 0.31 | 0.12 | inactive |
| KIF22 (GeneID 3835) | 4.74 | 4.97 | 4.66 | 4.6 | active |
| STAP2 (GeneID 55620) | 1.18 | 1.23 | 1.21 | 1.09 | inactive |
| AKR1B1 (GeneID 231) | 0.69 | 0.55 | 0.92 | 0.59 | inactive |
| CILK1 (GeneID 22858) | 1.65 | 2.04 | 1.12 | 1.8 | inactive |
| H3Y1 (GeneID 391769) | -2.35 | -2.86 | -2.04 | -2.16 | inactive |
| LOC402066 (retired record) (GeneID 402066) | -0.81 | -0.87 | -0.35 | -1.21 | inactive |
| SENP8 (GeneID 123228) | 0.47 | 0.32 | 0.4 | 0.68 | inactive |
| ARHGAP22 (GeneID 58504) | 2.79 | 2.76 | 2.92 | 2.7 | active |
| SULT2A1 (GeneID 6822) | -0.22 | -0.11 | -0.33 | -0.23 | inactive |
| TSLIG3B (GeneID 283742) | 0.26 | 0.11 | 0.27 | 0.4 | inactive |
| ENG (GeneID 2022) | -0.44 | -0.04 | -0.56 | -0.72 | inactive |
| ZDHHC7 (GeneID 55625) | -0.71 | -0.47 | -0.74 | -0.91 | inactive |
| IRF2BP2 (GeneID 359948) | 0.12 | -0.06 | 0.03 | 0.38 | inactive |
| SIN3A (GeneID 25942) | -0.67 | -0.49 | -0.58 | -0.93 | inactive |
| NBPF2P (GeneID 343381) | 0.6 | 0.59 | 0.54 | 0.66 | inactive |
| LOC389425 (retired record) (GeneID 389425) | -4.3 | -4.24 | -4.43 | -4.24 | inactive |
| LOC153910 (GeneID 153910) | -0.5 | -0.18 | -0.51 | -0.81 | inactive |
| SYNPO2L (GeneID 79933) | 0.56 | 0.42 | 0.45 | 0.82 | inactive |
| SHTN1 (GeneID 57698) | 0.68 | 0.7 | 0.72 | 0.62 | inactive |
| CFAP45 (GeneID 25790) | -0.06 | -0.03 | 0.03 | -0.18 | inactive |
| DRD4 (GeneID 1815) | -0.38 | -0.4 | -0.41 | -0.34 | inactive |
| SLC12A6 (GeneID 9990) | -0.5 | -0.36 | -0.62 | -0.52 | inactive |
| GFPT1 (GeneID 2673) | -0.28 | -0.27 | -0.27 | -0.31 | inactive |
| H1-0 (GeneID 3005) | -0.23 | 0.28 | -0.5 | -0.47 | inactive |

Targets listed so far whose target name begins with H or h:
| gene knocked down | mean z-score | z-score, replicate A | z-score, replicate B | z-score, replicate C | Outcome |
| --- | --- | --- | --- | --- | --- |
| HNRNPA1P4 (GeneID 389674) | 1.82 | 1.33 | 1.67 | 2.47 | inactive |
| H3Y1 (GeneID 391769) | -2.35 | -2.86 | -2.04 | -2.16 | inactive |
| H1-0 (GeneID 3005) | -0.23 | 0.28 | -0.5 | -0.47 | inactive |
